Values of other authors, collected in article PMC7449170, “ATI-2173, a Novel Liver-Targeted Non-Chain-Terminating Nucleotide for Hepatitis B Virus Cure Regimens” (Antimicrobial Agents and Chemotherapy, 2020).

Tested on: clevudine-resistant mutants
Conditions: mutants from viral break-through patients, predominantly M204I; cited from earlier work

Nc1ncnc2c1ncn2CCOCP(=O)(O)O [Adefovir]
Activity against clevudine-resistant mutants: active
